The values below come from patent US20240376182A1 (SAMATVA RESEARCH, published 2024).

Usually Kd stands for the equilibrium constant for the complex coming apart.

Like-named read-outs stand apart in the source and are kept apart here.

The target of assay [1] is biotinylated RBD-spike protein ([…], […]) (SARS-CoV-2).
Assay [2] has the same target. This is another data set of the same source.
Assay [3] has the same target. This is another data set of the same source.

B1: Karunyam 9 (scFv)
chain: MNHKVHHHHHHIEGRHMSPILGYWKIKGLVQPTRLLLEYLEEKYEEHLYERDEGDKWRNKKFELGLEFPNLPYYIDGDVKLTQSMAIIRYIADKHNMLGGCPKERAEISMLEGAVLDIRYGVSRIAYSKDFETLKVDFLSKLPEMLKMFEDRLCHKTYLNGDHVTHPDFMLYDALDVVLYMDPMCLDAFPKLVCFKKRIEAIPQIDKYLKSSKYIAWPLQGWQATFGGGDHPPKGIEENLYFQSHMELGTLEGEFDPIVMIDNDKPITGGGGSGSQVQLQESGPGLVKPSETLSLTCTVSGYSISSGYYWGWIRQPPGKGLEWIGSIYHSGSTYYNPSLKTRVTISVDTSKNQFSLKLSSVTAADTAVYYCARAVVGIVVVPAAGRRAFDIWGQGTMVTVSSGGGGSGGGGSGGGGSGGGGSGGGGSQSALTQPPSASGSPGQSVTISCTGTSSDVGGYNYVSWYQQHPGKAPKLMIYEVSKRPSGVPDRFSGSKSGNTASLTVSGLQAEDEADYYCSSYAGSNNLVFGGGTKVDSVSGNLKVEFYNSNPSDTTNSINPQFKVTNTGSSAIDLSKLTLRYYYTVDGQKDQTFWCDHAAIIGSNGSYNGITSNVKGTFVKMSSSTNNADTYLEISFTGGTLEPGAHVQIQGRFAKNDWSNYTQSNDYSFKSASQFVEWDQVTAYLNGVLVWGKESR
Molecule B1 returned a dissociation constant Kd in assay [1] of 4.05 nM.

B2: Karunyam 23 (scFv)
chain: MNHKVHHHHHHIEGRHMSPILGYWKIKGLVQPTRLLLEYLEEKYEEHLYERDEGDKWRNKKFELGLEFPNLPYYIDGDVKLTQSMAIIRYIADKHNMLGGCPKERAEISMLEGAVLDIRYGVSRIAYSKDFETLKVDFLSKLPEMLKMFEDRLCHKTYLNGDHVTHPDFMLYDALDVVLYMDPMCLDAFPKLVCFKKRIEAIPQIDKYLKSSKYIAWPLQGWQATFGGGDHPPKGIEENLYFQSHMELGTLEGEFDPIVMIDNDKPITGGGGSGSQVQLQESGPGLVKPSETLSLTCTVSGYSISSGYYWGWIRQPPGKGLEWIGSIYHSGSTYYNPSLKTRVTISVDTSKNQFSLKLSSVTAADTAVYYCARAVVGIVVVPAAGRRAFDIWGQGTMVTVSSGGGGSGGGGSGGGGSGGGGSGGGGSQSALTQPPSASGSPGQSVTISCTGTSSDVGGYNYVSWYQQHPGKAPKLMIYEVSKRPSGVPDRFSGSKSGNTASLTVSGLQAEDEADYYCSSYAGSNNLVFGGGTKVDYSRCQLQGFNCVVRSYGLPTIPCCRGLTCRSYFPGSTYGRCQRYSR
In the case of B2, binding in assay [2] was characterised by a dissociation constant (Kd) of 12.3 nM.

B3: Karunyam 26 (receptor)
chain: MNHKVHHHHHHIEGRHMSPILGYWKIKGLVQPTRLLLEYLEEKYEEHLYERDEGDKWRNKKFELGLEFPNLPYYIDGDVKLTQSMAIIRYIADKHNMLGGCPKERAEISMLEGAVLDIRYGVSRIAYSKDFETLKVDFLSKLPEMLKMFEDRLCHKTYLNGDHVTHPDFMLYDALDVVLYMDPMCLDAFPKLVCFKKRIEAIPQIDKYLKSSKYIAWPLQGWQATFGGGDHPPKGIEENLYFQSHMELGTLEGEFQSTIEEQAKTFLDFFNIQAEDLFYQSSLASWNYNTNITEENVQNMNNAGDKWSAFLKEQSTLAQMYPLQEIQNLTVKLQLQALQQNGSSVLSEDKSKRLNTILNTMSTIYSTGKVCNPDNPQECLLLEPGLVDVSGNLKVEFYNSNPSDTTNSINPQFKVTNTGSSAIDLSKLTLRYYYTVDGQKDQTFWCDHAAIIGSNGSYNGITSNVKGTFVKMSSSTNNADTYLEISFTGGTLEPGAHVQIQGRFAKNDWSNYTQSNDYSFKSASQFVEWDQVTAYLNGVLVWGKESR
In assay [3], B3 gave a dissociation constant (Kd) of 17 nM.

B4: Karunyam 21 (scFv)
chain: MNHKVHHHHHHIEGRHMSPILGYWKIKGLVQPTRLLLEYLEEKYEEHLYERDEGDKWRNKKFELGLEFPNLPYYIDGDVKLTQSMAIIRYIADKHNMLGGCPKERAEISMLEGAVLDIRYGVSRIAYSKDFETLKVDFLSKLPEMLKMFEDRLCHKTYLNGDHVTHPDFMLYDALDVVLYMDPMCLDAFPKLVCFKKRIEAIPQIDKYLKSSKYIAWPLQGWQATFGGGDHPPKGIEENLYFQSHMELGTLEGEFDPIVMIDNDKPITGGGGSGSQVQLQESGPGLVKPSETLSLTCTVSGYSISSGYYWGWIRQPPGKGLEWIGSIYHSGSTYYNPSLKTRVTISVDTSKNQFSLKLSSVTAADTAVYYCARAVVGIVVVPAAGRRAFDIWGQGTMVTVSSGGGGSGGGGSGGGGSGGGGSGGGGSQSALTQPPSASGSPGQSVTISCTGTSSDVGGYNYVSWYQQHPGKAPKLMIYEVSKRPSGVPDRFSGSKSGNTASLTVSGLQAEDEADYYCSSYAGSNNLVFGGGTKVDTNPGVSAWQVNTAYTAGQLVTYNGKTYKCLQPHTSLAGWEPSNVPALWQLQSR
In assay [2], B4 returned a dissociation constant (Kd) of 12.8 nM.
